Test [1] deals with (M113F)7(T145F)7(K147N)7 αHL protein pore (Staphylococcus aureus, UniProt P09616, K173N/M139F/T171F). As to conditions: sensor 1 of four-pore array = (M113F)7(T145F)7(K147N)7 pore.
Test [2] concerns the target (M113R)7(T145R)7 αHL protein pore (Staphylococcus aureus, UniProt P09616, M139R/T171R). As to conditions: for signal (current blocking events) in sensor 3: sensor 3 of four-pore array = (M113R)7(T145R)7 pore.
Test [3] has as its system double-channel consisting of a single (M113R)7(T145R)7 pore and a single (M113F)7(T145F)7(K147N)7 protein. The following applies: single component present, -40 mV, combined open channel current -51.0 pA, FIG. 9b.
For test [4], the target named is (M113E)7 αHL protein pore (Staphylococcus aureus, UniProt P09616, M139E). The following applies: in (M113E)7; 1 M NaCl, 10 mM Tris.HCl pH 7.5; FIG. 6.

With “Diethylenetriaminepentamethylenephosphonic acid heptasodium salt”, in test [1], the “signal (current blocking events) in sensor 1” value was “no signal”. In addition, in test [2], the “signal (current blocking events) in sensor 3” value was “signal”. Also, the “mean residual current of events” value in test [2] (single (M113R)7(T145R)7 pore (sensor 1 of FIG. 8), -40 mV, 20 μM DTPMPA, open channel current -27.1 pA) was −4.0 pA. Moreover, the “mean residual current of current blockage events” value in test [3] is reported as −28.1 pA.

As to cyclo(P-G)3, the “signal (current blocking events) in sensor 1” value in test [1] is “caused current blocking events”. In addition, the “signal (current blocking events) in sensor 3” value in test [2] was “no signal”.

As for Y-Y-Y-Y-Y-Y, the dwell time was determined as 0.43 ms in test [4] and 3.1 ms in test [2] (in (M113R)7(T145R)7, 1 M NaCl, 10 mM Tris.HCl pH 7.5, FIG. 6).

For the origin of these results see patent publication US20100099198A1 (priority 2008, published 2010).
